The subject of assay [1] is Acinetobacter baumanii/haemolyticus: Multidrug-resistant clinical isolate (AB-3167). Kind of assay: MIC determination (CLSI), AB-3167. The format is cell-based. How it is done:
(§1) The in vitro antibacterial activity of compounds described in the Examples was evaluated by minimum inhibitory concentration (MIC) testing according to Clinical and Laboratory Standards Institute (CLSI, formerly NCCLS) guidelines. See: Clinical and Laboratory Standards Institute. Methods for Dilution Antimicrobial Susceptibility Tests for Bacteria that Grow Aerobically; Approved Standard-Seventh Edition. CLSI document M7-A7 [ISBN 1-56238-587-9]. Clinical and Laboratory Standards Institute, 940 West Valley Road, Suite 1400, Wayne, Pa. 19087-1898 USA, 2006; also Clinical and Laboratory Standards Institute. Performance Standards for Antimicrobial Susceptibility Testing; Eighteenth Informational Supplement. CLSI document M100-S18 [ISBN1-56238-653-0]. Clinical and Laboratory Standards Institute.
(§2) The following bacterial strains were used in these MIC determinations:
2) Acinetobacter baumanii/haemolyticus: Multidrug-resistant clinical isolate labeled as AB-3167 in Tables 1, 2 and 3;

Sequences of proteins named here, by UniProt entry; tags and fusion partners are left off.
UniProt P47205, whole entry: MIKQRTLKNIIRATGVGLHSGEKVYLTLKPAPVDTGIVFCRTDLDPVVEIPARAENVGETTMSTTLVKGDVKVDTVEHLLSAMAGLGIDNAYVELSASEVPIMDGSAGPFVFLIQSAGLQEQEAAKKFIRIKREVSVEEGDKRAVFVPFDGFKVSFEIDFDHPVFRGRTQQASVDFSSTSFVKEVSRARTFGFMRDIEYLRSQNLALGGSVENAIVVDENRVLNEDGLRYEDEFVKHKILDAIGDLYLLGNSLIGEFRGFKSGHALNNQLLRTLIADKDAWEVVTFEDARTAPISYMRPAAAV

The subject of assay [2] is Pseudomonas aeruginosa UI-18: Wild-type (PA-7). Kind of assay: MIC determination (CLSI), PA-7. The format is cell-based. As for the experimental part: as §1, §2
1) Pseudomonas aeruginosa UI-18: Wild-type, labeled as PA-7 in Tables 1, 2 and 3;

In assay [3] the test system is Escherichia coli EC-1: VOGEL, mouse virulent. Kind of assay: MIC determination (CLSI), EC-1. In kind it is cell-based. How it is done:
as §1, §2
3) Escherichia coli EC-1: VOGEL, mouse virulent labeled as EC-1 in Tables 1, 2 and 3;

The target in assay [4] is Pseudomonas aeruginosa LpxC enzyme (Pseudomonas aeruginosa (strain ATCC 15692 / DSM 22644 / CIP 104116 / JCM 14847 / LMG 12228 / 1C / PRS 101 / PAO1), UniProt P47205). The assay is described as follows: IC50 Assay, LpxC Enzyme from P. aeruginosa (PA LpxC Enzyme IC50). In kind it is biochemical. The conditions noted are these: read-out: PA LpxC enzyeme IC50; Table 1.

Structures are written as SMILES.

In the case of `CC(CCc1ccc(-c2ccc(O)cc2)cc1)(C(=O)NO)S(C)(=O)=O` (stereo not shown), in assay [1] (Acinetobacter baumanii/haemolyticus multidrug-resistant clinical isolate AB-3167), the “AB-3167 MIC” value was “≧64 mg/L”. Moreover, the “PA-7 MIC” value in assay [2] (Pseudomonas aeruginosa UI-18 wild-type PA-7) was found to be 2 µg/mL. For the same compound, in assay [3] (Escherichia coli EC-1 VOGEL, mouse virulent), the “EC-1 MIC” value was determined as 16 µg/mL.
Turning to `COc1cc(-c2ccc(F)cc2)ccc1CCC(C)(C(=O)NO)S(C)(=O)=O` (stereo not shown), the IC50 in assay [4] is 0.63 nM. Also, the “AB-3167 MIC” value in assay [1] (Table 1, MIC) worked out at 16 µg/mL. Further, the “PA-7 MIC” value in assay [2] (Table 1, MIC) was found to be 4 µg/mL. The “EC-1: (MIC)” value in assay [3] (Table 1, MIC) worked out at 4 µg/mL.
